Results of unrelated studies side by side (data: NIAID ChemDB).

All rows: whole-cell or culture tests; species: Aspergillus fumigatus; endpoint: MIC

Neighbouring rows are from separate reports. Two numbers with a dash give a range or band. Blank or dashed fields: not listed here.

O=Cc1cc(-c2cccc(Br)c2)no1 ; strain or isolate: Clinical isolates ; value: >50 µg/mL
CN(Cc1cccc2ccccc12)/N=C\c1ccccc1 ; value: >64 µg/mL
CC1C=C(c2ccc(Br)c3ccccc23)C(=O)O1 ; strain or isolate: 231 ; value: >125 µM
OC(Cn1cncn1)(Cn1cncn1)c1ccc(F)cc1F ; strain or isolate: ATCC 96918 ; read by: broth dilution ; value: >200 µg/mL
CC1=CC[C@@H]2[C@H](C1)C2(C)C ; strain or isolate: F05 ; value: 0.16 µg/mL
Cn1c(C(F)(F)C(O)(Cn2cncn2)c2ccc(F)cc2F)nc2ccccc21 ; strain or isolate: IFM 40808 ; value: >8 µg/mL
CCC(CC)n1ncn(-c2ccc(N3CCN(c4ccc(OC[C@@H]5CO[C@@](Cn6cncn6)(c6ccc(F)cc6F)C5)cc4)CC3)cc2)c1=O ; strain or isolate: H11-20 ; value: ≤0.018 µg/mL
COc1cc(O)c2c(c1)C(=O)c1c(cc3c(c1O)-c1c(cc(C)c(C(=O)NC(C)C(=O)O)c1O)[C@H](OC1OC(C)C(N(C)C(=O)c4ccccc4)C(OC4OCC(O)C(O)C4O)C1O)[C@H]3O)C2=O ; strain or isolate: IAM2034 ; value: >100 µg/mL
OC(Cn1cncn1)(c1ccc(C(F)(F)F)cc1)C(F)(F)c1cccs1 ; strain or isolate: IFM 40808 ; value: >64 µg/mL
Cc1ccc(C2SCC(=O)N2c2ncc(-c3cc4ccccc4oc3=O)o2)cc1 ; strain or isolate: HIC 6094 ; read by: broth dilution ; value: 30 µg/mL
CC1C=C(c2cccc(Br)c2)C(=O)O1 ; strain or isolate: 231 ; value: >125 µM
CCC(C)n1ncn(-c2ccc(N3CCN(c4ccc(OC[C@H]5CO[C@](Cn6cncn6)(c6ccc(Cl)cc6Cl)O5)cc4)CC3)cc2)c1=O ; strain or isolate: Clinical isolates ; value: 4 µg/mL
Oc1ccc(CCN=C=S)cc1 ; strain or isolate: Rit 1 ; read by: visual reading ; value: 4 µg/mL
CCC1C=C(c2ccc(Br)cc2)C(=O)O1 ; strain or isolate: 231 ; value: >125 µM
CCOC(=O)C1=C(C)NC(C)=C(C(=O)OCC)C1c1cccc(O)c1 ; value: >1000 µg/mL
CS[C@H](C)[C@](O)(Cn1cncn1)c1ccc(F)cc1F ; strain or isolate: MTU6001 ; value: 1.56 µg/mL
O=Cc1cc(-c2ccc([N+](=O)[O-])cc2)no1 ; strain or isolate: Clinical isolates ; value: >50 µg/mL
C[C@@H](N1CCN(c2ccc(-n3cnnn3)cc2)C1=O)[C@@](O)(Cn1cncn1)c1ccc(F)cc1F ; strain or isolate: 437 ; value: >64 µg/mL
COc1cc(O)c2c(c1)C(=O)c1c(cc3c(c1O)-c1c(cc(C)c(C(=O)NC(C)C(=O)O)c1O)[C@H](OC1OC(C)C(N(C)CC(N)=O)C(OC4OCC(O)C(O)C4O)C1O)[C@H]3O)C2=O ; strain or isolate: IAM2034 ; value: 6.3 µg/mL
C[C@H]1[C@H](O)[C@@H](C)/C=C/C=C/C=C/C=C/C=C/C=C/C=C/[C@H](O[C@@H]2O[C@H](C)[C@@H](O)[C@H](N)[C@@H]2O)C[C@@H]2O[C@](O)(C[C@@H](O)C[C@@H](O)CC[C@H](O)[C@@H](O)C[C@@H](O)CC(=O)O[C@H]1C)C[C@H](O)[C@H]2C(=O)O ; value: 0.03 µg/mL
C/C(=N\NC(=O)c1ccncc1)c1cc2ccccc2oc1=O ; strain or isolate: ATCC 25691 ; read by: broth dilution ; value: 25 µg/mL
CN(Cc1cccc2ccccc12)/N=C\C=C\c1ccccc1 ; value: >64 µg/mL
CC1C=C(c2ccc(F)cc2)C(=O)O1 ; strain or isolate: 231 ; value: >125 µM
CCN1CCN(c2nc(Nc3ccc(C#N)c(C(F)(F)F)c3)nc(Oc3ncnc4ccccc34)n2)CC1 ; strain or isolate: MTCC 343 ; value: >100 µg/mL
COc1cc(O)c2c(c1)C(=O)c1c(cc3c(c1O)-c1c(cc(C)c(C(=O)NC(C)C(=O)O)c1O)[C@H](OC1OC(C)C(N(C)CC(=O)O)C(OC4OCC(O)C(O)C4O)C1O)[C@H]3O)C2=O ; strain or isolate: IAM2034 ; value: 6.3 µg/mL
CCCCCCCCCCS[C@H](C)[C@](O)(Cn1cncn1)c1ccc(F)cc1F ; strain or isolate: MTU6001 ; value: 25 µg/mL
CC1C=C(c2cccc3ccccc23)C(=O)O1 ; strain or isolate: 231 ; value: >125 µM
CCCCc1ccc(C(=O)Oc2c(OC)cc3ccnc4c3c2N(C)C=C4)cc1 ; value: 5 µg/mL
Cc1onc(-c2ccc(F)cc2)c1C=O ; strain or isolate: Clinical isolates ; value: 25 µg/mL
C[C@@H](n1ccn(-c2ccc(F)cc2)c1=O)C(O)(Cn1cncn1)c1ccc(F)cc1F ; strain or isolate: TIMM1728 ; value: 8 µg/mL
CC(C)CCCCCCCCCC1CC(=O)NCC(=O)N[C@@H](CCCCN)C(=O)N[C@@H](C(C)C)C(=O)N1 ; strain or isolate: TIMM0063 ; value: >80 µg/mL
CCC(C)CC(C)CCCCCCCCC(=O)N[C@H]1C[C@@H](O)[C@H](NCCN)NC(=O)[C@@H]2[C@@H](O)CCN2C(=O)[C@H]([C@H](O)CCN)NC(=O)[C@H]([C@H](O)[C@@H](O)c2ccc(O)cc2)NC(=O)[C@@H]2C[C@@H](O)CN2C(=O)[C@H]([C@@H](C)O)NC1=O ; strain or isolate: 71 strains ; value: 0.53 µg/mL
C[C@H]1[C@H](O)[C@@H](C)/C=C/C=C/C=C/C=C/C=C/C=C/C=C/[C@H](O[C@@H]2O[C@H](C)[C@@H](O)[C@H](N)[C@@H]2O)C[C@@H]2O[C@](O)(C[C@@H](O)C[C@@H](O)CC[C@H](O)[C@@H](O)C[C@@H](O)CC(=O)O[C@H]1C)C[C@H](O)[C@H]2C(=O)O ; strain or isolate: 20435 ; read by: broth dilution ; value: 0.25 µg/mL
CN(Cc1cccc2ccccc12)/N=C\c1ccccc1Cl ; value: >64 µg/mL
CCC1C=C(c2cccc(Cl)c2)C(=O)O1 ; strain or isolate: 231 ; value: 62.5 µM
CCOC(=O)C1=C(C)NC(C)=C(C(=O)OCC)C1c1ccc(OC)c(O)c1 ; value: 500 µg/mL
C=C1CO[C@H]2[C@@H](C)OC(OC[C@@]34C[C@H]5[C@H](C)CC[C@@H]5[C@@]5(C=O)C[C@@H]3C=C(C(C)C)[C@@]45C(=O)O)C[C@@H]12 ; value: >32 µg/mL
CC1C=C(c2ccccc2)C(=O)O1 ; strain or isolate: 231 ; value: >125 µM
O=C1CSC(c2ccc3c(c2)OCO3)N1c1ncc(-c2cc3ccccc3oc2=O)o1 ; strain or isolate: HIC 6094 ; read by: broth dilution ; value: 20 µg/mL
C[C@@H]([C@H](N)C(=O)N[C@H](C(=O)O)[C@H]1O[C@@H](n2ccc(=O)[nH]c2=O)[C@H](O)[C@@H]1O)[C@H](O)c1ccc(O)cn1 ; strain or isolate: 10AF ; value: 800 µg/mL
CN(Cc1cccc2ccccc12)/N=C\c1cccc2ccccc12 ; value: >64 µg/mL
O=C1CSC(c2ccco2)N1c1ncc(-c2cc3ccccc3oc2=O)o1 ; strain or isolate: HIC 6094 ; read by: broth dilution ; value: 25 µg/mL
O=C(c1cc(O)c(O)c(Br)c1Br)c1cc(O)c(O)c(Br)c1Br ; strain or isolate: HIC 6094 ; value: >100 µg/mL
CN(Cc1cccc2ccccc12)/N=C\c1ccccc1F ; value: >64 µg/mL
CC(/C=C/C=C(\C)C(O)C(C)C(=O)O[C@H]1C[C@@H](C)C=C2C=C[C@]3(C)O[C@@H](O)CC(=O)[C@]3(C)[C@H]21)=C\C=C\C(=O)O ; strain or isolate: AC3446 ; value: 50 µg/mL
CC(N1CCN(c2ccc(-n3cnnn3)cc2)C1=O)[C@](O)(Cn1cncn1)c1ccc(F)cc1F ; strain or isolate: TIMM1728 ; value: 0.5 µg/mL
O=C1CSC(c2ccc([N+](=O)[O-])cc2)N1c1ncc(-c2cc3ccccc3oc2=O)o1 ; strain or isolate: HIC 6094 ; read by: broth dilution ; value: 18 µg/mL
C[C@@H](n1ccn(-c2ccc(OCC(F)(F)C(F)F)cc2)c1=O)C(O)(Cn1cncn1)c1ccc(F)cc1F ; strain or isolate: TIMM1728 ; value: 2 µg/mL
CS(C)=O ; strain or isolate: MTCC 343 ; value: >100 µg/mL
O=S(=O)(c1ccccc1)n1cc(C(F)(F)C(O)(Cn2cncn2)c2ccc(F)cc2F)c2ccccc21 ; strain or isolate: IFM 40808 ; value: >64 µg/mL
O=C1CSC(c2ccc(Cl)cc2)N1c1ncc(-c2cc3ccccc3oc2=O)o1 ; strain or isolate: HIC 6094 ; read by: broth dilution ; value: 36 µg/mL
C[C@H]1[C@H](O)[C@@H](C)/C=C/C=C/C=C/C=C/C=C/C=C/C=C/[C@H](O[C@@H]2O[C@H](C)[C@@H](O)[C@H](N)[C@@H]2O)C[C@@H]2O[C@](O)(C[C@@H](O)C[C@@H](O)CC[C@H](O)[C@@H](O)C[C@@H](O)CC(=O)O[C@H]1C)C[C@H](O)[C@H]2C(=O)O ; strain or isolate: X807219 ; value: 1 µg/mL
CCC(C)n1ncn(-c2ccc(N3CCN(c4ccc(OC[C@H]5CO[C@](Cn6cncn6)(c6ccc(Cl)cc6Cl)O5)cc4)CC3)cc2)c1=O ; strain or isolate: H11-20 ; value: 0.07 µg/mL
C[C@@H](c1ncncc1F)[C@](O)(Cn1cncn1)c1ccc(F)cc1F ; strain or isolate: ATCC 204305 ; read by: broth dilution ; value: 1 µg/mL
CCOC(=O)C1=C(C)NC(C)=C(C(=O)OCC)C1c1ccccc1Br ; value: >1000 µg/mL
Cc1ccc(/C=N\N(C)Cc2cccc3ccccc23)cc1 ; value: >64 µg/mL
C[C@@H](SCCCCCCCC#N)[C@](O)(Cn1cncn1)c1ccc(F)cc1F ; strain or isolate: MTU6001 ; value: ≤0.2 µg/mL
CCCCCCCCCCCC[n+]1cccc2ccccc21 ; strain or isolate: 231 ; read by: broth dilution ; conditions: 24 h ; value: 0.0625 µg/mL
N#Cc1ccc(Nc2nc(Oc3ncnc4ccccc34)nc(N3CCN(C(c4ccccc4)c4ccccc4)CC3)n2)cc1C(F)(F)F ; strain or isolate: MTCC 343 ; value: 25 µg/mL
O=Cc1cc(-c2ccc(Cl)cc2Cl)no1 ; strain or isolate: Clinical isolates ; value: 50 µg/mL
CCC(C)n1ncn(-c2ccc(N3CCN(c4ccc(OC[C@H]5CO[C@](Cn6cncn6)(c6ccc(Cl)cc6Cl)O5)cc4)CC3)cc2)c1=O ; strain or isolate: 4 strains ; value: 0.13 µg/mL
C[C@@H](SCCCCCCCC(N)=O)[C@](O)(Cn1cncn1)c1ccc(F)cc1F ; strain or isolate: MTU6001 ; value: 1.56 µg/mL
Nc1[nH]c(=O)ncc1F ; strain or isolate: 4 strains ; value: 4–32 µg/mL
Nc1scc2c1c(=O)oc1ccc3ccccc3c12 ; read by: broth dilution ; value: 64 µg/mL
COc1cc(O)c2c(c1)C(=O)c1c(cc3c(c1O)-c1c(cc(C)c(C(=O)NC(C)C(=O)O)c1O)[C@H](OC1OC(C)C(N(C)C/C=C/C(=O)O)C(OC4OCC(O)C(O)C4O)C1O)[C@H]3O)C2=O ; strain or isolate: IAM2034 ; value: 6.3 µg/mL
C[C@@H](n1ccn(-c2ccc(OC(F)(F)F)cc2)c1=O)C(O)(Cn1cncn1)c1ccc(F)cc1F ; strain or isolate: TIMM1728 ; value: 2 µg/mL
OC(Cn1cncn1)(c1ccc(F)cc1F)C(F)(F)c1nc(Br)cs1 ; strain or isolate: IFM 40808 ; value: 2 µg/mL
CCCCCCCS[C@H](C)[C@](O)(Cn1cncn1)c1ccc(F)cc1F ; strain or isolate: MTU6001 ; value: 0.39 µg/mL

Repeating the final 9 entries:

compound | strain or isolate | read by | conditions | value
O=Cc1cc(-c2ccc(Cl)cc2Cl)no1 | Clinical isolates |  |  | 50 µg/mL
CCC(C)n1ncn(-c2ccc(N3CCN(c4ccc(OC[C@H]5CO[C@](Cn6cncn6)(c6ccc(Cl)cc6Cl)O5)cc4)CC3)cc2)c1=O | 4 strains |  |  | 0.13 µg/mL
C[C@@H](SCCCCCCCC(N)=O)[C@](O)(Cn1cncn1)c1ccc(F)cc1F | MTU6001 |  |  | 1.56 µg/mL
Nc1[nH]c(=O)ncc1F | 4 strains |  |  | 4–32 µg/mL
Nc1scc2c1c(=O)oc1ccc3ccccc3c12 |  | broth dilution |  | 64 µg/mL
COc1cc(O)c2c(c1)C(=O)c1c(cc3c(c1O)-c1c(cc(C)c(C(=O)NC(C)C(=O)O)c1O)[C@H](OC1OC(C)C(N(C)C/C=C/C(=O)O)C(OC4OCC(O)C(O)C4O)C1O)[C@H]3O)C2=O | IAM2034 |  |  | 6.3 µg/mL
C[C@@H](n1ccn(-c2ccc(OC(F)(F)F)cc2)c1=O)C(O)(Cn1cncn1)c1ccc(F)cc1F | TIMM1728 |  |  | 2 µg/mL
OC(Cn1cncn1)(c1ccc(F)cc1F)C(F)(F)c1nc(Br)cs1 | IFM 40808 |  |  | 2 µg/mL
CCCCCCCS[C@H](C)[C@](O)(Cn1cncn1)c1ccc(F)cc1F | MTU6001 |  |  | 0.39 µg/mL